Assay results reported in article PMC7111291 (European Journal of Medicinal Chemistry, 2020).

Test system: VSVG/HIV-1RT-K103N,Y181C
Type: cell-based

## O=C1Nc2ccc(Cl)cc2[C@@](C#CC2CC2)(C(F)(F)F)O1 [EFV, efavirenz]
  Mean change (fold) in EC50 compared to wild type: 0.05 ± 0.003 (50.2) fold
